The text below walks through data of PMC7873859.

This series concerns O=[N+]([O-])c1ccc(O[C@@H]2O[C@H](CO)[C@H](O)[C@H](O)[C@H]2O)cc1. Nature of the series: purified protein. Conditions: pH 8.0; 37.0 °C.

As to “Rv1717 (Mycobacterium tuberculosis H37Rv)”, the Km is 382 µM.

A word on the Km: it is the concentration of substrate that gives half-maximal velocity.
